# Measured values: article PMC10783087 (Microbiology Spectrum, 2023)
# Assays:
# [1] = test system: Mtb; type: cell-based, Mycobacterium tuberculosis; details: for Hillslope: in vitro Mtb dose-response curve
# [2] = test system: Mtb CDC1551 FFluc reporter strain in primary bone marrow-derived macrophages; type: cell-based, Mycobacterium tuberculosis
Compound,Hillslope [1],fold lower in potency than NITD-304 and NITD-349 ([1]; in vitro Mtb EC50 compared with NITD-304 and NITD-349),fold higher in potency than SQ109 ([1]; in vitro Mtb EC50 compared with SQ109),enhanced intra-macrophage activity compared to in vitro activity [2] [fold]
CC(C)N(C(=O)CSc1nc2ccc(Cl)cc2[nH]1)C(C)C [HC2099],2.6,,,
CC(C)N(C(=O)CNc1nc2cc(Cl)c(Cl)cc2[nH]1)C(C)C [MSU-43165],4.4,,,
CC(C)N(C(=O)COc1nc2cc(Cl)c(Cl)cc2[nH]1)C(C)C [MSU-43170],2.7,3- to 5 fold,~ 10 fold,3.3
